Anti-infective test results gathered from many reports (values: NIAID ChemDB through PubChem).

All rows: cytotoxicity tests; endpoint: CC50

An empty or dashed field is not shown. Neighbouring rows are from separate reports. CCn: concentration that lowers growth or viability of the cells by n%. a–b is a range or a potency band.

smiles,read by,cells,value
Cc1cn([C@H]2C[C@H](N=[N+]=[N-])[C@@H](CO)O2)c(=O)[nH]c1=O,-,HSF,>10 µM
CCCCCCCCCCCCCCCC(=O)OCC(CO)(COC(=O)CCCCCCCCCCCCCCC)NC(=O)CNC(=O)CC[C@H](NC(=O)c1ccc(N(C)Cc2cnc3nc(N)nc(N)c3n2)cc1)C(=O)O,-,Jurkat cells,1.2 µM
Nc1nc2c(ncn2[C@H]2CO[C@@H](CO)O2)c(=O)[nH]1,-,DU145,>500 µM
CCCCCCCCCCCCCCCC(=O)OCC(CO)(CO)NC(=O)CNC(=O)CCCc1ccc(C(CCCl)CCCl)cc1,-,PC-3,10.7 µM
Nc1nc(N)c2ncn(C[C@@H](CO)OCP(=O)(O)O)c2n1,-,C3,>200 µM
Cc1cc(NS(=O)(=O)c2ccc(N3C(=O)CSC3c3ccc(F)cc3)cc2)no1,MTT,HCT116,>100 µg/mL
O=C1CCC(c2ccccc2)C(=O)N1CCCN1CCN(c2ncccn2)CC1,MTT,VERO 76,98 µM
O=c1[nH]c(=O)n([C@@H]2CO[C@H](CO)C2)cc1/C=C/Br,-,E6SM,>400 µg/mL
O=C([O-])c1ccc(C2=C3C=CC(=N3)C(c3ccc(C(=O)[O-])cc3)=C3C=CC(=N3)C(=c3ccc(=C([O-])[O-])cc3)c3ccc([n-]3)C(c3ccc(C(=O)[O-])cc3)=C3C=CC2=N3)cc1,MTT,MAGI cell,>100 µM
NC(=O)c1ncn([C@@H]2O[C@H](CO)[C@@H](O)[C@H]2O)c1C#CCO,-,PRK,0.55 µg/mL
O=C1CCC(c2ccccc2)C(=O)N1CCCCN1CCN(Cc2ccccc2)CC1,MTT,VERO 76,96 µM
Oc1cc(O)c2c(c1)O[C@H](c1ccc(O)c(O)c1)[C@H](O)[C@H]2c1c(O)cc(O)c2c1O[C@H](c1ccc(O)c(O)c1)[C@H](O)C2,-,Huh-7/3-1,>25 µg/mL
CC(=O)O[C@H]1C(=O)[C@@]2(C)[C@H]([C@H](OC(=O)c3ccccc3)[C@]3(O)C[C@H](OC(=O)[C@H](O)[C@@H](NC(=O)c4ccccc4)c4ccccc4)C(C)=C1C3(C)C)[C@]1(OC(C)=O)CO[C@@H]1C[C@@H]2O,MTT,HCT116,0.1279 µg/mL
O=P(Oc1ccccc1)(Oc1ccccc1)Oc1ccccc1,-,HCT116,70.7 µM
Nc1nccc2c1ncn2[C@@H]1C[C@H](CO)[C@@H](O)[C@H]1O,-,PRK,2.2 µg/mL
O=C(NC(=O)C1N=C(c2ccccc2)c2ccccc2NC1=O)c1ccsc1,-,VERO,2 µM
NC(=O)c1ncn([C@@H]2O[C@H](CO)[C@@H](O)[C@H]2O)n1,-,PRK,5.6 µg/mL
c1cc(CN2CCCNCCNCCCNCC2)ccc1CN1CCCNCCNCCCNCC1,MTT,MAGI cell,>0.2 µM
Cc1cn([C@@H]2C[C@@H](O)[C@H](CO)O2)c(=O)[nH]c1=O,-,2.2.15,>2000 µM
CCCc1cc(=O)oc2c3c(c4c(c12)OC(C)(C)C=C4)O[C@H](C)[C@@H](C)[C@@H]3O,-,CEMx174,10–20 µM
Cc1ccccc1C(=O)NC1N=C(c2ccccc2)c2ccccc2NC1=O,-,VERO,3 µM
CCCc1cc(=O)oc2c3c(c4c(c12)OC(C)(C)C=C4)O[C@@H](C)[C@H](C)[C@@H]3O,-,AA5,10–20 µM
Cc1cc(NS(=O)(=O)c2ccc(N3C(=O)CSC3c3ccc(C(F)(F)F)cc3)cc2)no1,MTT,HCT116,>100 µg/mL
Cc1cn([C@H]2C[C@H](N=[N+]=[N-])[C@@H](CO)O2)c(=O)[nH]c1=O,-,C3,10 µM
O=C1CCC(c2ccccc2)C(=O)N1CCCCN1CCN(c2ccccc2)CC1,MTT,VERO 76,>100 µM
Nc1nc(OCCOCP(=O)(O)O)cc(OCCOCP(=O)(O)O)n1,-,L1210,<10 µM
CCC/C=C1\OC(=O)C2=C1CC[C@H]1[C@H]3C=C4C(=O)O/C(=C\CCC)[C@@]4(CC3)[C@@H]21,-,RAW 264.7,200 µg/mL
OCCN1CCN(CCCN2c3ccccc3Sc3ccc(Cl)cc32)CC1,MTT,Huh 7.5.1 clone 2,10.5 µM
CSc1nc(N)cc(OCCOCP(=O)(O)O)n1,-,CCRF-CEM,<10 µM
CC1(C)C=CC[C@@]2(C)CC(CO)C(C)(C)[C@H]12,-,RAW 264.7,125 µg/mL
O=C(NC1NC(c2ccccc2)(c2cccc(Cl)c2)c2ccccc2NC1=O)c1cccs1,-,HEP-2,5 µM
Nc1ccn([C@@H]2C[C@@H](O)[C@H](CO)O2)c(=O)n1,-,MA-104,>100 µM
O=C([O-])c1cc(COc2ccc(-c3c4nc(c(-c5ccc(OCc6cc(C(=O)[O-])cc(C(=O)[O-])c6)cc5)c5ccc([n-]5)c(-c5ccc(OCc6cc(C(=O)[O-])cc(C(=O)[O-])c6)cc5)c5nc(c(-c6ccc(OCc7cc(C(=O)[O-])cc(C(=O)[O-])c7)cc6)c6ccc3[n-]6)C=C5)C=C4)cc2)cc(C(=O)[O-])c1,MTT,MAGI cell,>100 µM
O=c1[nH]cnc2c1ncn2[C@H]1CC[C@@H](CO)O1,-,HeLaT4,>2500 µM
COc1ccc(Br)c(C(=O)NC2N=C(c3ccccc3)c3ccccc3NC2=O)c1,-,HEP-2,2 µM
Nc1ccn([C@H]2CC[C@@H](CO)O2)c(=O)n1,-,CBMC,29 µM
COc1cc(S(C)(=O)=O)ccc1C(=O)NC1N=C(c2ccccc2)c2ccccc2NC1=O,-,HEP-2,2.4 µM
O=C1CCC(c2ccccc2)C(=O)N1,MTT,VERO 76,98 µM
Nc1ncnc2c1ncn2[C@@H]1C[C@@H](O)[C@H](CO)O1,-,2.2.15,>1000 µM
COC(=O)/C=C/C(=O)c1ccc(OC)cc1,MTT / absorbance,THP-1,7.61 µg/mL
Nc1cc(SCCOCP(=O)(O)O)nc(N)n1,-,HeLa S3,<10 µM
C=C[C@]1(C)C=C2C(=O)c3c(NC=O)cccc3C(C)(C)[C@H]2C[C@H]1O,-,NCI-H460,>100 µM
CCC/C=C1\OC(=O)c2ccccc21,-,RAW 264.7,250 µg/mL
CC[C@@]1(O)C(=O)OCc2c1cc1n(c2=O)Cc2cc3ccccc3nc2-1,-,SF268,0.07 µM
Nc1nc(N)c2ncn([C@H]3CO[C@@H](CO)O3)c2n1,-,CBMC,>500 µM

For reference, 4 entries again:

smiles | read by | cells | value
O=C([O-])c1ccc(C2=C3C=CC(=N3)C(c3ccc(C(=O)[O-])cc3)=C3C=CC(=N3)C(=c3ccc(=C([O-])[O-])cc3)c3ccc([n-]3)C(c3ccc(C(=O)[O-])cc3)=C3C=CC2=N3)cc1 | MTT | MAGI cell | >100 µM
Cc1cn([C@@H]2C[C@@H](O)[C@H](CO)O2)c(=O)[nH]c1=O | - | 2.2.15 | >2000 µM
Nc1nc(N)c2ncn([C@H]3CO[C@@H](CO)O3)c2n1 | - | CBMC | >500 µM
Nc1nc(OCCOCP(=O)(O)O)cc(OCCOCP(=O)(O)O)n1 | - | L1210 | <10 µM